We go through one molecule from publication PMC8126837 (Proceedings of the National Academy of Sciences of the …, 2021).

For the test, the target named is SARS-CoV-2 receptor-binding domain (RBD), wild type (SARS-CoV-2, UniProt P0DTC2, DyLight 488 (NHS ester, about 1.9 dye/protein) in the FRET assay only). Briefly: cell-based or functional assay.

B1: WNb 10 (VHH)
VHH: QVQLQESGGGLVQPGGSLRLSCAASGFTFRRYLMGWARQVPGKGLEWVSGIYSDGSTYYADSVKGRFTISRDNAKNTVYLQMNSLKPEDTAVYYCAKDRMDGSTWPERDFGSWGQGTQVTVSS
As to B1, the “neutralisation of WT SARS-CoV-2, MNV assay; blocks RBD-ACE2” value was 68.1 nM.
